Results of unrelated studies side by side (data: NIAID ChemDB).

All rows: tests in culture; organism: Mycobacterium tuberculosis

An empty or dashed field is not shown.

SMILES	method	cell line	mutations	strain	endpoint	dose	result
O=CN(Cc1cnccn1)Cc1cnccn1	BACTEC			H37Rv	MIC bound		>12.5 µg/mL
CC(=O)Nc1ccc(S(=O)(=O)c2ccc(Nc3ccnc4ccc(Cl)cc34)cc2)cc1				Strain 2 (MDR)	MIC		4 µg/mL
O=C(N/N=C/c1ccc(Cl)cc1Cl)c1c[nH]c2cc(Cl)ccc2c1=O	resazurin			RCMB 010126	MIC		99.84 µg/mL
CN1CC(O)C2=CC(=O)C(=O)C=C21	BACTEC			H37Rv	MIC		≥12.5 µg/mL
C[C@@H]1CN(c2c(F)c(N)c3c(=O)c(C(=O)O)cn(C4CC4)c3c2F)C[C@H](C)N1				100 isolates	MIC50		0.25 µg/mL
CCN(CC)c1ccc2cc(C(=O)Nc3ccc4[nH]c(C(=O)N5CC(CCl)c6c5cc(OC(=O)Nc5ccccc5)c5[nH]cc(C)c65)cc4c3)oc2c1	BACTEC			H37Rv	inhibition	6.25 µg/mL	100%
CC(=O)OC[C@@]12CC[C@]3(C(=O)O)[C@@H](C(C)C)CC[C@H]3[C@@H]1C1C=C(C)C(C2)OO1	resazurin			CIBIN 99	MIC		50 µg/mL
CO[C@H]1/C=C/O[C@@]2(C)Oc3c(C)c(O)c4c(O)c(c5c(c4c3C2=O)NC2(CCN(CC(C)C)CC2)N=5)=NC(=O)/C(C)=C\C=C\[C@H](C)[C@H](O)[C@@H](C)[C@@H](O)[C@@H](C)[C@H](OC(C)=O)[C@@H]1C				RM22	MIC		32 µg/mL
Oc1cccc(Nc2cc(-c3ccccc3)nc3ccc(Cl)cc23)c1				Strain 2 (MDR)	MIC		8 µg/mL
COc1ccc(-c2cc(=O)c3c(OC)c(-c4cc(OC)ccc4C4CC(=O)c5c(OC)cc(OC)cc5O4)c(OC)cc3o2)cc1					inhibition	12.5 µg/mL	1%
CCC[CH2][Sn]([Br])([I])[CH2]CCC.c1cnc2c(c1)ccc1cccnc12		VERO		H37Rv	MIC		3.13 µg/mL
CCCCCCCCOc1ccc(NC(=O)OCCN2CCCCCC2)cc1				My 331/88	MIC		4 µM
CN[C@@H]1[C@H](O[C@H]2[C@H](O[C@H]3[C@H](O)[C@@H](O)[C@H](N=C(N)N)[C@@H](O)[C@@H]3N=C(N)N)O[C@@H](C)[C@]2(O)C=O)O[C@@H](CO)[C@H](O)[C@H]1O	broth dilution			MTCC 200	MIC		60 µg/mL
CCCCCCCCCCCCCCC(C)O				H37Rv	MIC		8 µg/mL
C[C@H]1[C@H](C)CC[C@]2(C(=O)O)CC[C@]3(C)C(=CC[C@@H]4[C@@]5(C)C[C@@H](O)[C@H](O)[C@@](C)(CO)[C@@H]5[C@H](O)C[C@]43C)[C@H]12	BACTEC			H37Rv	MIC		≥12.8 µg/mL
CC1COc2c(N3CCN(C)CC3)c(F)cc3c(=O)c(C(=O)O)cn1c23				RM22	MIC		1 µg/mL
CC[C@@H](CO)NCCN[C@@H](CC)CO	visual reading			H37Rv	MIC		1.25 µg/mL
CC(=O)OCC1OC(OC(C)=O)C(On2nnc3c(-c4ccccc4)c(C)nn32)C(OC(C)=O)C1OC(C)=O	BACTEC			H37Rv	MIC		128 µg/mL
Cc1ccc2nc(C(=O)N/N=C/c3ccc(Oc4ccccc4Cl)cc3)[nH]c2c1	resazurin			H37Rv	MIC		3.125 µg/mL
Cc1ccc2nccc(Nc3ccc(S(=O)(=O)Nc4ccnn4-c4ccccc4)cc3)c2c1				Strain 1 (MDR)	MIC		4 µg/mL
CCCCCCCCCOc1cccc(NC(=O)OCCN2CCCCC2)c1				My 331/88	MIC		16 µM
CC(/C=N/NC(=S)SCc1ccccc1)=N\N=C(N)N	BACTEC			H37Rv	MIC bound		≤128 µg/mL
COc1ccc2nccc(Nc3ccc(S(=O)(=O)c4ccc(NC(C)=O)cc4)cc3)c2c1				Strain 1 (MDR)	MIC		0.4 µg/mL
COc1cc(/C=N/NC(=O)c2c[nH]c3ccc(Cl)cc3c2=O)cc(OC)c1OC	resazurin			RCMB 010126	MIC		6.24 µg/mL
Oc1cccc2ccc(N/N=C/c3ccnc4c(O)cccc34)nc12	BACTEC			H37Rv	MIC bound		>12.5 µg/mL
Cc1cc(O)c2c(c1)C(=O)C(c1c(C)cc3c(c1O)C(=O)C=CC3=O)=CC2=O	broth dilution			H37Ra ATCC 25177	MIC		16 µg/mL
C=C(C)[C@@H]1CC[C@]2(C)CC[C@]3(C)[C@H](CC[C@@H]4[C@@]5(C)CCC(=O)C(C)(C)[C@@H]5CC[C@]43C)[C@@H]12				H37Rv	MIC		>128 µM
CO[C@H]1/C=C/O[C@@]2(C)Oc3c(C)c(O)c4c(O)c(c(/C=N/N5CCN(C)CC5)c(O)c4c3C2=O)NC(=O)/C(C)=C\C=C\[C@H](C)[C@H](O)[C@@H](C)[C@@H](O)[C@@H](C)[C@H](OC(C)=O)[C@@H]1C	visual reading			H37Rv	MIC		0.078 µg/mL
O=C1c2c(O)ccc(O)c2C(=O)c2c(NCCNCCO)ccc(NCCNCCO)c21	BACTEC			H37Rv	MIC bound		>12.5 µg/mL
C=CN(O)C[C@@H](CCCC)C(=O)N[C@H](C(=O)N(C)C)C(C)(C)C				H37Rv	MIC		0.2 µg/mL
CC1=CC[C@@H](O)[C@]2(C)CC[C@@H]3[C@H](OC(=O)[C@H]3C)[C@@H]12				H37Rv	MIC		>128 µg/mL
O=c1c2c3c(sc2nc2n1N=C(c1ccc(Br)cc1)CS2)CCCC3	resazurin			H37Rv	MIC bound		>6.25 µg/mL
O=C(N/N=C/c1ccc(Oc2cccc3ccccc23)cc1)c1nc2ccccc2[nH]1	resazurin			H37Rv	MIC		12.5 µg/mL
CC1=CCC2=C3CC[C@H](C(C)C)[C@@]3(C)CC(=O)[C@@]2(C)CC1	resazurin			CIBIN 99	MIC		50 µg/mL
CC(=O)c1c(O)c(C)c(O)c2c1OC1=CC(=O)C(C(C)=O)C(=O)C12C	BACTEC			H37Rv	MIC bound		≤12.5 µg/mL
C[C@@H]1CC[C@]2(C(=O)O)CC[C@]3(C)C(=CC[C@@H]4[C@@]5(C)C[C@H](O)[C@H](O)C(C)(C)[C@@H]5CC[C@]43C)[C@@H]2[C@]1(C)O				H37Rv	MIC		>128 µM
CCCCCCCCOc1ccccc1NC(=O)OCC[NH+]1CCCC1				My 331/88	MIC		16 µM
CC1=CC(=O)c2ccccc2C1=O	broth dilution			H37Ra ATCC 25177	MBC		16 µg/mL
NNC(=O)c1ccncc1	broth dilution			MTCC 200	MIC		20 µg/mL
NNC(=O)c1ccncc1				H37Rv	MIC		<0.016 µg/mL
Cc1ccc2nc(C(=O)N/N=C/c3ccc(Oc4ccc(Cl)c(C)c4)cc3)[nH]c2c1	resazurin			H37Rv	MIC		1.5 µg/mL
CCCCOc1ccccc1NC(=O)OCCN(C)C				My 331/88	MIC		250 µM
CCn1cc(C(=O)O)c(=O)c2cc(F)c(N3CCNCC3)cc21				100 isolates	MIC90		>16 µg/mL
Cc1nc(N)c2ncn([C@@H]3O[C@H](CO)[C@@H](O)[C@H]3O)c2n1				ATCC 35822 (isoniazid-resistant)	MIC		3.13 µg/mL
O=C1CC(c2ccccc2)Oc2cc(-c3cccc(-c4cc(=O)c5ccccc5o4)c3)ccc21					inhibition	12.5 µg/mL	0%
Oc1cc(Cl)ccc1Oc1ccc(Cl)cc1Cl	resazurin			H37Rv	MIC		5 µg/mL
CCOc1cccc(/C=N/NC(=O)C(N)Cc2ccc(O)cc2)c1O	BACTEC			H37Rv	MIC bound		>12.5 µg/mL
CO[C@H]1/C=C/O[C@@]2(C)Oc3c(C)c(O)c4c(O)c(c(/C=N/N5CCN(C6CCCC6)CC5)c(O)c4c3C2=O)NC(=O)/C(C)=C\C=C\[C@H](C)[C@H](O)[C@@H](C)[C@@H](O)[C@@H](C)[C@H](OC(C)=O)[C@@H]1C				H37Rv	MIC		≤0.125 µg/mL
CC(C)[C@H]1CC[C@H]2[C@@H]3C=C[C@](C)(O)[C@H](O)C[C@]3(C)CC[C@]12C(=O)O	resazurin			CIBIN 99	MIC		50 µg/mL
Cn1cccc1C1NC(=O)C(c2cccn2C)NC1=O	BACTEC			H37Rv	MIC		≥12.5 µg/mL
COc1cccc2c(NC(=S)Nc3ccc(Cl)cc3)ccnc12				Strain 1 (MDR)	MIC		0.5 µg/mL
COc1ccc(Oc2ccc(/C=N/NC(=O)c3nc4ccccc4[nH]3)cc2)cc1	resazurin			H37Rv	MIC		6.25 µg/mL
CC(=O)NC1C(CO)OC2OC(C)(C)OC21	BACTEC			H37Rv	MIC bound		>12.5 µg/mL
CC[C@@H](CO)NCCN[C@@H](CC)CO				K139	MIC		16 µg/mL
Cc1nc2nc(S(=O)(=O)Nc3c(Br)ccc4cccnc34)nn2c2c1CCC2	visual reading		INH RIF resistant	M22	MIC50		2 µM
COc1cc(O)c2c(=O)c(OC)c(-c3ccc(O)cc3)oc2c1	BACTEC			H37Rv	inhibition	100 µg/mL	48%
CCCOc1ccccc1NC(=O)OCCN(C)C				My 331/88	MIC		500 µM
CC(=O)O[C@H]1C[C@@]2(C)C(=C3CC=C(C)CC[C@@]31C)CC[C@@H]2C(C)C	resazurin			CIBIN 99	MIC		100 µg/mL
O=P(O)(O)CN1CCN(CP(=O)(O)O)CCN(CP(=O)(O)O)CCN(CP(=O)(O)O)CC1	resazurin			H37Rv	inhibition	6.25 µg/mL	-13%
CCCCCCCCOc1cccc(NC(=O)OCCN2CCOCC2)c1				My 331/88	MIC		16 µM
COc1ncc(F)c2nc(S(=O)(=O)Nc3ncccc3C(C)=O)nn12	visual reading		INH RIF resistant	M22	MIC50		0.5 µM
C=C(C)[C@@H]1CC[C@]2(C)CCC3(C)[C@H](CC[C@@H]4[C@@]5(C)CC[C@H](O)C(C)(C)[C@@H]5CC[C@]43C)[C@@H]12				H37Rv	MIC		64 µM
COC(=O)C1C(OC(C)=O)C(C)C(O)C(C)(O)/C=C(\C)C2=C3C(=C(C)C(=O)c4c(O)c(c(C)c(OC(C)=O)c43)NC(=O)/C(C)=C/C=C\[C@](C)(O)C(O)[C@@H](C)C1O)OCO2	BACTEC			H37Rv	MIC bound		≤12.8 µg/mL
C[C@@H]1CC[C@]2(C(=O)O)CC[C@]3(C)C(=CC[C@@H]4[C@@]5(C)C[C@@H](O)[C@H](O)[C@@](C)(CO)[C@@H]5CC[C@]43C)[C@@H]2[C@]1(C)O				H37Rv	MIC		>128 µM
CN1CCCC(CN2c3ccccc3Sc3ccccc32)C1	BACTEC			H37Rv	inhibition	12.5 µg/mL	75%
O=C(NNc1cc(-c2ccccc2)nc2ccc(Cl)cc12)c1ccncc1				Strain 2 (MDR)	MIC		2 µg/mL
CC(=O)O[C@@H]1CC[C@]23C[C@]24CC[C@]2(C)[C@@H]([C@H](C)CC[C@H]5OC5(C)C)CC[C@@]2(C)[C@@H]4CC[C@H]3C1(C)C				H37Rv	MIC		>128 µg/mL
O=[N+]([O-])c1ccc(N/N=C/c2ccco2)nc1	BACTEC			H37Rv	MIC bound		>12.5 µg/mL
CC(=O)NC[C@H]1CN(c2ccc(N3CCOCC3)c(F)c2)C(=O)O1				RM22	MIC		0.125 µg/mL
C=C1C(=O)O[C@@H]2C[C@@]3(C)CCC(=O)C(C)=C3C[C@H]12				H37Rv	MIC		128 µg/mL
COc1ccc(Oc2ccc(/C=N/NC(=O)c3nc4ccc(Cl)cc4[nH]3)cc2)cc1	resazurin			H37Rv	MIC		12.5 µg/mL
CCOc1cccc(NC(=O)OCCN(C)C)c1				My 331/88	MIC		250 µM
COc1c(/C=C/C=O)cc2c(c1OC)OCO2	BACTEC			H37Rv	inhibition	12.5 µg/mL	42%
CC1CC[C@H]2[C@@H]3CC[C@H](C(C)C)[C@@]3(C(=O)O)CC[C@@]2(C)CC1	resazurin			H37Rv	MIC		100 µg/mL
CCOC(=O)c1cnc2c(ccc3ncccc32)c1NCCCN(CC)CC	BACTEC			H37Rv	MIC		≥12.5 µg/mL
CC(=O)O[C@H]1CC[C@]2(C)[C@H]3CC[C@]4(C)[C@@H]([C@H](C)/C=C/[C@H](C)C(C)C)CC[C@H]4[C@@]34C=C[C@]2(C1)OO4				H37Rv	MIC		8 µg/mL

The last 6 rows once more:

SMILES,method,cell line,mutations,strain,endpoint,dose,result
COc1ccc(Oc2ccc(/C=N/NC(=O)c3nc4ccc(Cl)cc4[nH]3)cc2)cc1,resazurin,,,H37Rv,MIC,,12.5 µg/mL
CCOc1cccc(NC(=O)OCCN(C)C)c1,,,,My 331/88,MIC,,250 µM
COc1c(/C=C/C=O)cc2c(c1OC)OCO2,BACTEC,,,H37Rv,inhibition,12.5 µg/mL,42%
CC1CC[C@H]2[C@@H]3CC[C@H](C(C)C)[C@@]3(C(=O)O)CC[C@@]2(C)CC1,resazurin,,,H37Rv,MIC,,100 µg/mL
CCOC(=O)c1cnc2c(ccc3ncccc32)c1NCCCN(CC)CC,BACTEC,,,H37Rv,MIC,,≥12.5 µg/mL
CC(=O)O[C@H]1CC[C@]2(C)[C@H]3CC[C@]4(C)[C@@H]([C@H](C)/C=C/[C@H](C)C(C)C)CC[C@H]4[C@@]34C=C[C@]2(C1)OO4,,,,H37Rv,MIC,,8 µg/mL

MIC bound comes from a single tested concentration. Inhibition is in % at the dose shown (toxicity tests: loss of growth or viability). Rows are shuffled and stem from different studies. MIC50, MIC90 and the like: level of inhibition, or share of isolates inhibited.